Measured values from several laboratories, pooled; numbers as filed in NIAID ChemDB.

Shared fields: tests in culture; organism: HIV-1; cells: MT-4; endpoint: EC50

ECn: concentration that inhibits the pathogen or its effect by n%.

{"structure": "C=CCOCn1c(Cc2ccccc2)c(CF)c(=O)[nH]c1=O", "strain": "IIIB", "changes": "K103N + Y181C", "method": "MTT", "value": ">100 µM"}
{"structure": "O=C(Cl)CCCN1C(=O)c2ccccc2C1=O", "strain": "IIIB", "method": "MTT", "value": ">52.8 µM"}
{"structure": "COc1ccc(NC(=S)Nc2nc(NCCc3ccc(OC)c(OC)c3)nc(Oc3cc(=O)oc4ccccc34)n2)cc1", "strain": "IIIB", "method": "MTT", "value": ">56.45 µg/mL"}
{"structure": "Clc1cc(CN2CCCNCCNCCCNCC2)cc(Cl)n1", "strain": "NL4-3 AMD3100-resistant X4", "method": "p24", "value": "9.7 µM"}
{"structure": "COC(=O)C(C)NC(=O)CCCN1C(=O)c2ccccc2C1=O", "strain": "IIIB", "method": "MTT", "value": ">101 µM"}
{"structure": "COP(=O)(c1cc(C)cc(CCC#N)c1)c1c(C(N)=O)[nH]c2ccc(Cl)c(F)c12", "strain": "IIIB", "changes": "K103N/Y181C", "method": "cytopathic effect", "value": "0.0047 µM"}
{"structure": "CC(=O)c1ccc(C)cc1NC(C(N)=O)c1c(Cl)cccc1Cl", "strain": "IIIB", "method": "cytopathic effect / MTT", "value": "0.013 µM"}
{"structure": "O=C(CCCN1C(=O)c2ccccc2C1=O)NC(=S)NC(CS)C(=O)O", "strain": "IIIB", "method": "MTT", "value": ">90.9 µM"}
{"structure": "Nc1ccc(-c2n[nH]c(=S)n2N)cc1", "strain": "IIIB", "method": "MTT", "value": ">12 µg/mL"}
{"structure": "C#Cc1ccc(Nc2nccc(Oc3c(C)cc(-c4cn(CCc5cccs5)nn4)cc3C)n2)cc1", "strain": "RES056", "method": "MTT", "value": ">5.53 µM"}
{"structure": "CC1(C)c2nc(C(=O)NCc3ccc(F)cc3)c(O)c(=O)n2CCN1Cc1ccn[nH]1", "method": "p24", "value": "<1 µM"}
{"structure": "CC(C)[C@@H](NC(=O)c1ccccc1)C(=O)N/N=C/c1c(F)cccc1Cl", "strain": "IIIB", "method": "MTT", "value": ">332 µM"}
{"structure": "O=C(CCCN1C(=O)c2ccccc2C1=O)NC(=S)NC(CO)C(=O)O", "strain": "IIIB", "method": "MTT", "value": ">89.5 µM"}
{"structure": "Cc1cccc(S(=O)(=O)c2c(C(=O)NCCO)[nH]c3ccc(Cl)cc23)c1", "changes": "RT-Y181C", "method": "cytopathic effect / MTT", "value": "0.1 µM"}
{"structure": "Cc1cc(C)c(Oc2ncc(N)c(Nc3ccc(C#N)cc3)n2)c(C)c1", "strain": "IIIB", "method": "MTT", "value": "0.007 µM"}
{"structure": "Nn1c(-c2ccc(Cl)c(Cl)c2)n[nH]c1=S", "strain": "IIIB", "method": "MTT", "value": ">72.83 µg/mL"}
{"structure": "COc1ccc(CCNc2nc(NC(=S)Nc3ccccc3C)nc(Oc3cc(=O)oc4ccccc34)n2)cc1OC", "strain": "IIIB", "method": "MTT", "value": ">20.03 µg/mL"}
{"structure": "CCOC(=O)c1cc(-c2cccc(OC)c2)n(-c2cccc(Br)c2)c1C", "method": "cytopathic effect / MTT", "value": ">10 µM"}
{"structure": "Cc1cc(Br)cc(C)c1Oc1ncc(N)c(Nc2ccc(C#N)cc2)n1", "strain": "RES056", "method": "MTT", "value": "4.8 µM"}
{"structure": "Nc1ccc(-c2nnc3sc(-c4cc5ccccc5oc4=O)nn23)cc1", "strain": "IIIB", "method": "MTT", "value": ">108.3 µg/mL"}
{"structure": "Cc1nc2c(c(C)c(C)n2CC#N)c(-c2ccc(Cl)cc2)c1C(OC(C)(C)C)C(=O)O", "strain": "IIIB", "method": "MTT", "value": "0.341 µM"}
{"structure": "Cc1cn([C@H]2C[C@H](N=[N+]=[N-])[C@@H](CO)O2)c(=O)[nH]c1=O", "strain": "Clinical isolate", "method": "MTT", "value": "0.0168 µg/mL"}
{"structure": "CC(=O)O[C@@H]1C2[C@]3(CC[C@@]45C[C@@]46CC[C@H](OC(=O)c4ccccc4)C(C)(C)[C@@H]6CCC5[C@]3(C)[C@@H]1OC(C)=O)CO[C@@]1(C(C)(C)O)CC[C@]2(C)O1", "strain": "NL4-3", "method": "luciferase", "value": ">30 µM"}
{"structure": "CCc1c(Cc2ccc(OC)c(OC)c2)n(COCCc2ccccc2)c(=O)[nH]c1=O", "strain": "IIIB", "method": "MTT", "value": ">73 µM"}
{"structure": "CC(C)CN(C[C@@H](O)[C@H](Cc1ccccc1)NC(=O)O[C@H]1CO[C@H]2OCC[C@H]21)S(=O)(=O)c1ccc2[nH]c(O)c(C=NCc3nc4ccccc4[nH]3)c2c1", "changes": "L10 V32 V33 M46 M47 L63 A71 V82 I84 mutant", "method": "MTT", "value": ">0.4 µM"}
{"structure": "CC(=O)O[C@H]1[C@@H]2O[C@@]3(C(C)(C)O)CC[C@](C)(O3)C2[C@@]2(CO)CC[C@@]34C[C@@]35CC[C@H](Oc3cc(C)cc(C)c3)C(C)(C)C5CCC4[C@]12C", "strain": "NL4-3", "method": "luciferase", "value": "1.047 µM"}
{"structure": "Cn1nnc(CN2CCn3c(nc(C(=O)NCc4ccc(F)cc4)c(O)c3=O)C2(C)C)n1", "method": "p24", "value": "<1 µM"}
{"structure": "Cc1cc(C)cc(S(=O)(=O)c2c(C(=O)NCCO)[nH]c3ccc(Cl)cc23)c1", "changes": "RT-K103N Y181C", "method": "cytopathic effect / MTT", "value": "0.3 µM"}
{"structure": "CC1(C)c2nc(C(=O)NCc3ccc(F)cc3)c(O)c(=O)n2CCN1Cc1cscn1", "method": "p24", "value": "<1 µM"}
{"structure": "CC(=O)c1cc2c3ccccc3c3ccc(N)cc3n2c1C", "method": "cytopathic effect / MTT", "value": ">18 µM"}
{"structure": "CCc1c(Cc2ccc(OC)c(OC)c2)n(COCc2ccccc2)c(=O)[nH]c1=O", "strain": "A17", "changes": "K103N/Y181C", "method": "MTT", "value": ">80 µM"}
{"structure": "CCOC(=O)c1ccc(NC(=O)COc2cccnc2-c2cccc3ccccc23)cc1", "strain": "IIIB", "method": "MTT / absorbance", "value": ">49.5 µM"}
{"structure": "O=C(NCCO)c1[nH]c2ccc(Cl)cc2c1S(=O)(=O)c1ccccc1", "strain": "IIIB", "method": "cytopathic effect / MTT", "value": "0.001 µM"}
{"structure": "CCOC(=O)c1cc(-c2cccc(N=[N+]=[N-])c2)n(-c2cccc(OC)c2)c1C", "method": "cytopathic effect / MTT", "value": ">47 µM"}
{"structure": "CC(C)C(NC(=S)NC(=O)CCCN1C(=O)c2ccccc2C1=O)C(=O)O", "strain": "IIIB", "method": "MTT", "value": ">26.73 µM"}
{"structure": "CCc1c(Cc2cc(C)cc(C)c2)n(COCC2CC2)c(=O)[nH]c1=O", "strain": "IIIB", "method": "MTT", "value": "0.03 µM"}
{"structure": "CC(=O)Nc1cnc(Oc2c(C)cc(C)cc2C)nc1Nc1ccc(C#N)cc1", "strain": "IIIB", "method": "MTT", "value": "9.3 µM"}
{"structure": "Nc1ccn([C@@H]2CC[C@H](CO)O2)c(=O)n1", "strain": "RF", "method": "syncytia", "value": "0.07 µM"}
{"structure": "CCn1c(C)c(C)c2c(-c3ccc(OC)cc3)c(C(OC(C)(C)C)C(=O)O)c(C)nc21", "strain": "IIIB", "method": "MTT", "value": "0.03298 µM"}
{"structure": "COc1ccc(CCNc2nc(NC(=S)Nc3ccccc3)nc(Oc3cc(=O)oc4ccccc34)n2)cc1OC", "strain": "IIIB", "method": "MTT", "value": ">15.45 µg/mL"}
{"structure": "Oc1ccc(-c2nn3c(-c4ccc(O)c(Cl)c4Cl)nnc3s2)c(Cl)c1Cl", "strain": "IIIB", "method": "MTT", "value": ">67.8 µg/mL"}
{"structure": "CC(=O)c1cc(-c2cccc([N+](=O)[O-])c2)n(-c2ccccc2)c1C", "method": "cytopathic effect / MTT", "value": ">300 µM"}
{"structure": "CC(C)CN(C[C@@H](O)[C@H](Cc1ccccc1)NC(=O)O[C@H]1CCOC1)S(=O)(=O)c1ccc(N)cc1", "strain": "T20760", "changes": "L10F I47I/V", "method": "reporter gene", "value": "1496 nM"}
{"structure": "CC(C)[C@@H](NC(=O)c1ccccc1)C(=O)N/N=C/c1ccccc1F", "strain": "IIIB", "method": "MTT", "value": ">366 µM"}
{"structure": "Nc1ncnc2c1ncn2[C@@H]1C=C[C@H](CO)[C@H]1CO", "strain": "MN", "method": "XTT", "value": "1.9 µg/mL"}
{"structure": "N#Cc1ccc(Nc2nc(Oc3c(Br)cc(Br)cc3Br)ncc2NC(=O)C(F)(F)F)cc1", "strain": "RES056", "method": "MTT", "value": "2.9 µM"}
{"structure": "CC(=O)c1ccccc1N[C@@H](C(N)=O)c1c(Cl)cccc1Cl", "strain": "IIIB", "method": "cytopathic effect / MTT", "value": "6.5 µM"}
{"structure": "C=C(C)COCn1c(Cc2ccccc2)c(CO)c(=O)[nH]c1=O", "strain": "IIIB", "changes": "K103N + Y181C", "method": "MTT", "value": ">20 µM"}
{"structure": "Cc1nc2c(c(C)c(C)n2C)c(-c2ccc(Cl)cc2)c1[C@@H](OC(C)(C)C)C(=O)O", "strain": "IIIB", "method": "MTT", "value": ">99 µM"}
{"structure": "CN(C)C(=O)C(=O)N(C)C1COCCn2c1nc(C(=O)NCc1ccc(F)cc1)c(O)c2=O", "method": "p24", "value": "<1 µM"}
{"structure": "COc1ccc(CCNc2nc(NC(=O)Nc3ccc(F)cc3)nc(Oc3cc(=O)oc4ccccc34)n2)cc1OC", "strain": "IIIB", "method": "MTT", "value": ">19.75 µg/mL"}
{"structure": "Cc1ccnc2c1NC(=O)c1cccnc1N2C1CC1", "changes": "L100I", "method": "MTT", "value": "2.233 µM"}
{"structure": "Oc1ccc(-c2nnc3sc(-c4cnccn4)nn23)c(Cl)c1Cl", "strain": "IIIB", "method": "MTT", "value": ">2.11 µg/mL"}
{"structure": "CCc1c(Cc2cc(C)cc(C)c2)n(COCCF)c(=O)[nH]c1=O", "method": "MTT", "value": "0.006 µM"}
{"structure": "CCOc1ccc(NC(=S)Nc2nc(NCCc3ccc(OC)c(OC)c3)nc(Oc3cc(=O)oc4ccccc34)n2)cc1", "strain": "IIIB", "method": "MTT", "value": ">66.05 µg/mL"}
{"structure": "Cc1cc(C)cc(Sc2c(C(=O)NNCCO)[nH]c3ccc(Cl)cc23)c1", "changes": "RT-Y181C", "method": "cytopathic effect / MTT", "value": "1 µM"}
{"structure": "Cc1cc(CNC(=O)c2nc3n(c(=O)c2O)CCN(C(C)C)CC3N(C)C(=O)C(=O)N(C)C)ccc1F", "method": "p24", "value": "<1 µM"}
{"structure": "CCOC(=O)CNc1nc(Nc2ccc(C)cc2)nc(Oc2cc(=O)oc3ccccc23)n1", "strain": "IIIB", "method": "MTT", "value": "1.07 µg/mL"}
{"structure": "Cc1cc(C)cc(Sc2c(C(=O)NCCO)[nH]c3ccc(Cl)cc23)c1", "changes": "RT-K103N Y181C", "method": "cytopathic effect / MTT", "value": "1.2 µM"}
{"structure": "C#CCOCn1c(Cc2ccccc2)c(CO)c(=O)[nH]c1=O", "strain": "Clinical isolates", "changes": "Y181C", "method": "MTT", "value": ">100 µM"}
{"structure": "CCOC(=O)CNc1nc(NC(=O)Nc2ccc(F)cc2)nc(Oc2cc(=O)oc3ccccc23)n1", "strain": "IIIB", "method": "MTT", "value": ">125 µg/mL"}
{"structure": "CC(=O)Nc1cnc(Oc2c(Cl)cc(Cl)cc2Cl)nc1Nc1ccc(C#N)cc1", "strain": "IIIB", "method": "MTT", "value": "1.9 µM"}
{"structure": "COC(=O)c1ccc(NC(=O)COc2cccnc2-c2cccc3ccccc23)c(Cl)c1", "strain": "IIIB", "method": "MTT / absorbance", "value": ">9.35 µM"}
{"structure": "O=C1Nc2ccc(Cl)cc2[C@@](C#CC2CC2)(C(F)(F)F)O1", "changes": "EFV-resistant (K103R V179D P225H)", "method": "MTT", "value": "12 µM"}
{"structure": "Cc1ccc(S(=O)(=O)c2c(C(=O)NNCCO)[nH]c3ccc(Cl)cc23)cc1", "changes": "RT-K103N Y181C", "method": "cytopathic effect / MTT", "value": "20 µM"}
{"structure": "CC(C)[C@H](NC(=O)c1ccccc1)C(=O)N/N=C/c1c(F)cccc1F", "strain": "IIIB", "method": "MTT", "value": "12.1 µM"}
{"structure": "Cc1nc2c(c(C)c(C)n2CCO)c(-c2ccc(Cl)cc2)c1C(OC(C)(C)C)C(=O)O", "strain": "IIIB", "method": "MTT", "value": "0.0191 µM"}
{"structure": "Cc1cc(C#N)cc(C)c1Oc1ncc(N)c(Nc2ccc(C#N)cc2)n1", "strain": "RES056", "method": "MTT", "value": "0.33 µM"}
{"structure": "CCc1c(Cc2ccc(C)cc2)n(COCc2ccccc2)c(=O)[nH]c1=O", "strain": "A17", "changes": "K103N/Y181C", "method": "MTT", "value": ">44 µM"}
{"structure": "O=C(COc1cccnc1-c1cccc2ccccc12)Nc1ccc(C(F)(F)F)cc1", "strain": "IIIB", "method": "MTT / absorbance", "value": ">11.7 µM"}
{"structure": "O=C(NNCCO)c1[nH]c2ccc(Cl)cc2c1S(=O)(=O)c1ccccc1", "changes": "RT-K103N Y181C", "method": "cytopathic effect / MTT", "value": "20 µM"}
{"structure": "C#Cc1ccc(Nc2nccc(Oc3c(C)cc(-c4cn(Cc5ccc(C(=O)OC)cc5)nn4)cc3C)n2)cc1", "strain": "IIIB", "changes": "Y181C", "method": "MTT", "value": "2.11 µM"}
{"structure": "CCc1c(Cc2ccc(OC)c(OC)c2)n(COCCCc2ccccc2)c(=O)[nH]c1=O", "strain": "N119", "changes": "Y181C", "method": "MTT", "value": ">38 µM"}
{"structure": "COc1c(O)cc2ccc(=O)oc2c1-c1c(O)ccc2ccc(=O)oc12", "changes": "AZT-resistant (67N 70R 215F 219Q)", "method": "MTT", "value": "6.6 µM"}
{"structure": "N#Cc1cc(Cl)cc(Oc2c(Br)ccc(CC(=O)Nc3ccc(S(N)(=O)=O)cc3Cl)c2F)c1", "changes": "L100I V106I Y181C Y188L", "value": ">0.4 µM"}
{"structure": "Cc1ccc(NC(=O)COc2cccnc2-c2cccc3ccccc23)c([N+](=O)[O-])c1", "strain": "RES056", "method": "MTT / absorbance", "value": ">19.3 µM"}
{"structure": "Clc1ccc(-c2nnc3n2N=C(c2ccccc2)CS3)cc1Cl", "strain": "IIIB", "method": "MTT", "value": ">1.97 µg/mL"}
{"structure": "N#Cc1ccc(NC(=O)COc2cccnc2-c2cccc3ccccc23)cc1", "strain": "IIIB", "method": "MTT / absorbance", "value": ">39.5 µM"}
{"structure": "Oc1ccc(-c2nnc3sc(-c4ccc[nH]4)nn23)c(Cl)c1Cl", "strain": "IIIB", "method": "MTT", "value": ">68.48 µg/mL"}
{"structure": "CCc1c(Cc2cc(C)cc(C)c2)n(COCCO)c(=O)[nH]c1=O", "strain": "IIIB", "changes": "K103N + Y181C", "method": "MTT", "value": "30 µM"}

Lines come from different laboratories, so protocols vary.